Results of unrelated studies side by side (data: NIAID ChemDB).

Shared fields: tests in culture; organism: Herpes simplex virus 1; cell line: HEL; read-out: EC50

An empty or dashed field is not shown. ECn: concentration that inhibits the pathogen or its effect by n%. Lines come from different laboratories, so protocols vary.

| compound | strain or isolate | method | result |
|---|---|---|---|
| Nc1nc2c(ncn2COC(CO)CO)c(=O)[nH]1 | ACV-resistant | cytopathic effect | 7.23 µg/mL |
| O=C(O)P(=O)(O)O | KOS | cytopathic effect | 33.5 µg/mL |
| Cc1cn([C@@H]2O[C@H](CO)[C@@H](O)[C@@H]2O)c(=O)[nH]c1=O | KOS S2242-resistant | cytopathic effect | 0.42 µg/mL |
| CCCOC(=O)c1cc(O)c(O)c(O)c1 | KOS | plaque count | 17 µg/mL |
| Nc1ncnc2c1ncn2CCOCP(=O)(O)O | KOS S2242-resistant | cytopathic effect | 54 µg/mL |
| Nc1nc2c(ncn2CCC(CO)CO)c(=O)[nH]1 | PCV-resistant/B | cytopathic effect | >20 µg/mL |
| CC(C)NCC(O)c1ccc(O)c(O)c1 | KOS | plaque count | 102 µg/mL |
| OC[C@H]1O[C@@H](n2cnc3c(Cl)nccc32)C[C@@H]1O | KOS |  | >100 µM |
| C=Cc1cn([C@H]2C[C@H](O)[C@@H](CO)O2)c(=O)[nH]c1=O |  | plaque count | 0.43 µM |
| Nc1nc(N)c2ncn(CCOCP(=O)(O)O)c2n1 | KOS | cytopathic effect | 2 µg/mL |
| O=c1[nH]c(=O)n([C@@H]2O[C@H](CO)[C@@H](O)[C@@H]2O)cc1/C=C/Br | KOS | cytopathic effect | 0.0065 µg/mL |
| Nc1nc2c(ncn2CCC(CO)CO)c(=O)[nH]1 | KOS PMEDAP-resistant | cytopathic effect | 0.23 µg/mL |
| O=c1[nH]c(=O)n([C@@H]2O[C@H](CO)[C@@H](O)[C@@H]2O)cc1/C=C/Br |  | plaque count | 0.06 µM |
| Nc1nc2c(ncn2COCCO)c(=O)[nH]1 | KOS |  | 0.2 µM |
| O=c1[nH]cccc1O | KOS | plaque count | >200 µg/mL |
| O=C(O)P(=O)(O)O | KOS PMEA-resistant | cytopathic effect | 113.7 µg/mL |
| Nc1ncnc2c1ncn2C[C@@H](CO)OCP(=O)(O)O | KOS | cytopathic effect | 1.73 µg/mL |
| COC(=O)c1cc(O)c(O)c(O)c1 | KOS | plaque count | 6.1 µg/mL |
| Nc1ccnc2c1ncn2[C@H]1C[C@H](O)[C@@H](COP(=O)(O)COC(=O)[C@@H](N)CC(=O)O)O1 | KOS |  | >100 µM |
| CCOC(=O)c1cc(O)c(O)c(O)c1 | B2006 (TK-) | plaque count | 7.4 µg/mL |
| O=C(O)CP(=O)(O)O | KOS PMEA-resistant | cytopathic effect | 70.5 µg/mL |
| NCC(O)c1ccc(O)c(O)c1 | B2006 (TK-) | plaque count | 35 µg/mL |
| O=C(O)CP(=O)(O)O | PCV-resistant/B | cytopathic effect | 11 µg/mL |
| CC#Cc1cn([C@@H]2O[C@H](CO)[C@@H](O)[C@@H]2O)c(=O)[nH]c1=O |  | plaque count | >1135 µM |
| Cc1cc(=O)oc2cc(O)c(O)cc12 | B2006 (TK-) | plaque count | 23 µg/mL |
| C[C@H](NP(=O)(N[C@@H](C)C(=O)OC(C)(C)C)OC[C@H]1O[C@@H](n2cnc(C(N)=O)c2N)[C@H](O)[C@@H]1O)C(=O)OC(C)(C)C | KOS | cytopathic effect | >100 µM |
| CCc1cn([C@@H]2O[C@H](CO)[C@@H](O)[C@@H]2F)c(=O)[nH]c1=O |  | plaque count | 0.22 µM |

The last 3 rows once more:

compound | strain or isolate | method | result
Cc1cc(=O)oc2cc(O)c(O)cc12 | B2006 (TK-) | plaque count | 23 µg/mL
C[C@H](NP(=O)(N[C@@H](C)C(=O)OC(C)(C)C)OC[C@H]1O[C@@H](n2cnc(C(N)=O)c2N)[C@H](O)[C@@H]1O)C(=O)OC(C)(C)C | KOS | cytopathic effect | >100 µM
CCc1cn([C@@H]2O[C@H](CO)[C@@H](O)[C@@H]2F)c(=O)[nH]c1=O |  | plaque count | 0.22 µM